Reference: PubChem BioAssay AID504761 (Drosophila RNAi Screening Center, 2011)
The deposit covers about 22,000 reagents; shown is an unselected part of those with a known target gene and a result. In the full data, 116 (0.52%) got an active call. 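Calls depend on retest data that are not deposited; infection was ranked per plate without normalising between plates; the unit of the infection score is not given.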 The raw values are shown without normalisation. A number with no mark means an inactive call. Not all columns of the deposit are shown. Not stated in the record: the amount of reagent, the time to read-out.

Screen: 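Fly genes whose silencing reduces dengue virus type 2 infection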 (primary screen)
Cell system: D.Mel-2 cells from Drosophila
Reagents: long dsRNA against Drosophila genes
Conditions: infection with dengue virus type 2; dose and infection time not stated
Read-out: 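Cells stained for dengue envelope protein and imaged; percent of infected cells per well on duplicate plates, ranked by infection, with stained nuclei counted for cell number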
Scale: infection score: higher = more virus-infected cells; cell count: higher = more cells in the well
Active means: 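Low infection ranks in the two replicates (chance level up to 0.065) followed by a retest with a 1.5-fold or larger significant decrease, p below 0.05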
Meaning of the calls: active = confirmed: knock-down lowers infection; inactive = not picked or not confirmed

Silencing of CG17982 [DRSC18143] resulted in: infection score, replicate 1 = 2.38; cell count, replicate 1 = 6652.
With knock-down of levy [DRSC04289] the results were infection score, replicate 1 = 7.71; cell count, replicate 1 = 6524.
Pepck2 [DRSC06013] showed infection score, replicate 1 = 3.23; cell count, replicate 1 = 5790.
Silencing of Pepck2 [DRSC26167] gave: infection score, replicate 1 = 5.17; cell count, replicate 1 = 6292.
CG6066 [DRSC15959] gave infection score, replicate 1 = 11; cell count, replicate 1 = 5982.
For CG6066 [DRSC22228], the values are infection score, replicate 1 = 2.08; cell count, replicate 1 = 6587.
After knock-down of CG6066 [DRSC27936], the record shows infection score, replicate 1 = 33.6; cell count, replicate 1 = 5512.

Looked up above.
CG6066 [DRSC22228], cell count, replicate 1 → 6587
Under “cell count, replicate 1”, CG6066 [DRSC27936] reads 5512

More results:
After knock-down of Or85f [DRSC16769], the screen gave infection score, replicate 1 = 5.02; cell count, replicate 1 = 7151.
CG14471 (retired record) [DRSC04865] gave infection score, replicate 1 = 7.84; cell count, replicate 1 = 6546.
CG14471 (retired record) [DRSC26266] showed infection score, replicate 1 = 8.89; cell count, replicate 1 = 5680.
CG11438 [DRSC11660] gave infection score, replicate 1 = 10.1; cell count, replicate 1 = 6538.
Depletion of CG42613 [DRSC13332] resulted in: infection score, replicate 1 = 7.4; cell count, replicate 1 = 5409.
With knock-down of CG42613 [DRSC14769], the record shows infection score, replicate 1 = 6.75; cell count, replicate 1 = 5929.
For CG42613 [DRSC15802], the values are infection score, replicate 1 = 3.47; cell count, replicate 1 = 6504.
Depletion of CG42613 [DRSC25089] came out at: infection score, replicate 1 = 3.38; cell count, replicate 1 = 6720.
